Here are results for 1 substance from article doi:10.1101/2022.08.07.503104.

The experiment deals with Recombinant HIV-1 capsid protein (CA) (HIV-1). Kind of experiment: SPR. (In general: In SPR one partner is held on a chip, and binding of the other changes the refractive index at the surface.)

Take “Recombinant human CypA (from UniProt P62937 1-165) (enzyme)”: the Kd – broadly, the equilibrium constant for the complex coming apart – was 3.6 µM.
